Measured values from several laboratories, pooled; numbers as filed in NIAID ChemDB.

Common to all: whole-cell or culture tests; agent: HIV-1; method: RT activity; read-out: EC50

ECn is the concentration giving n% inhibition of infection, replication or growth. Two numbers with a dash give a range or band. Neighbouring rows are from separate reports. Blank or dashed fields: not listed here.

smiles	strain or isolate	cell line	changes	conditions	result
COc1cccc(OC)c1C(=O)OCc1nc2ccccc2nc1C	89BZ167	PBMC	-	-	23.3 µM
COCCNC(=O)[C@@H](NC(=O)[C@H](Cc1ccc(OC)cc1)C[C@H](O)[C@H](Cc1ccccc1)NC(=O)OC(C)(C)C)C(C)C	MN	MT-2	-	-	<0.03 µM
CC(C)C1=C2[C@H]3CC[C@@H]4[C@@]5(C)CC[C@H](OC(=O)CC(C)(C)C(=O)O)C(C)(C)[C@@H]5CC[C@@]4(C)[C@]3(C)CC[C@@]2(NC(=O)NCc2ccccc2)CC1=O	IIIB	MT-2	-	30% human serum	<0.199 µM
C[C@@H](O)[C@H](NC(=O)[C@@H](N)CC(N)=O)C(=O)N[C@@H](CO)C(=O)N[C@@H](Cc1ccc(O)cc1)C(=O)NCC(=O)O	LAV	A3.01	-	-	<0.001 µM
Cc1cn([C@H]2C[C@H](N=[N+]=[N-])[C@@H](COP(=O)(OCCSC(=O)C(C)(C)C)OCCSC(=O)C(C)(C)C)O2)c(=O)[nH]c1=O	LAI	MM + M/M	-	-	0.0001 µM
COc1cc(-c2ccc(N=Nc3ccc4c(S(=O)(=O)O)cc(S(=O)(=O)O)c(N)c4c3O)c(OC)c2)ccc1N=Nc1ccc2c(S(=O)(=O)O)cc(S(=O)(=O)O)c(N)c2c1O	ED	CEM + CEM-SS	-	-	0.2 µM
CC(=O)OC[C@H]1O[C@@H](SCCOP(=O)(O)OC[C@H]2O[C@@H](n3cc(C)c(=O)[nH]c3=O)C[C@@H]2N=[N+]=[N-])[C@H](OC(C)=O)[C@@H](OC(C)=O)[C@@H]1OC(C)=O	LAI	CEM + CEM-SS	-	-	0.01 µM
COc1ccc(C(=O)OCc2nc3ccccc3nc2C)c(OC)c1OC	BaL	PBMC	-	-	>100 µM
C[Si](O)(O[Si](C)(CCCn1cnc2c(N)ncnc21)c1ccccc1)c1ccccc1	IIIB	PBMC	-	-	6 µM
O=c1cc(-c2ccc(O)cc2O)oc2cc(O)cc(O)c12	LAV	PBMC	-	-	3.3 µM
Cc1cn([C@H]2C[C@H](N=[N+]=[N-])[C@@H](CO)O2)c(=O)[nH]c1=O	IIIB	H9	-	-	0.18 µg/mL
CC(C)=CCN1CCc2c[nH]c(=S)n2CC1	LAI	CEM + CEM-SS	-	-	>100 µM
CC(C)C1=C2C3CCC4[C@@]5(C)CC[C@H](OC(=O)CC(C)(C)C(=O)O)C(C)(C)C5CC[C@@]4(C)[C@]3(C)CC[C@@]2(NC(=O)c2nnc(-c3ccccc3)o2)CC1=O	IIIB	MT-2	-	30% human serum	<0.199 µM
CC(CO)n1cnc2c(N)ncnc21	LAV-1	MT-4	-	-	>100 µM
COc1ccccc1C[C@H](C[C@H](O)[C@H](Cc1ccccc1)NC(=O)OC(C)(C)C)C(=O)N[C@H](C(=O)N[C@@H](Cc1ccccc1)C(=O)N1CCOCC1)C(C)C	MN	MT-2	-	-	<0.1 µM
Nc1ncc2ncn(CCCO)c2n1	LAV-1	MT-2	-	-	>100 µM
COc1cc(C[C@H]2C(=O)OC[C@@H]2Cc2ccc(OC)c(OC)c2)ccc1O	IIIB	H9	-	-	<0.05 µM
Cc1cn([C@H]2CO[C@@H](CO[P@]3(=O)OCC[C@H](c4cccc(Cl)c4)O3)O2)c(=O)[nH]c1=O	LAI	PBMC	RT-M184V	-	2 µM
COc1ccc(C[C@H](C[C@H](O)[C@H](Cc2ccccc2)NC(=O)OC(C)(C)C)C(=O)N[C@H](C(=O)NCCN(C)C)C(C)C)cc1	MN	MT-2	-	-	<0.3 µM
CC(C)C1=C2[C@H]3CC[C@@H]4[C@@]5(C)CC[C@H](OC(=O)CC(C)(C)C(=O)O)C(C)(C)[C@@H]5CC[C@@]4(C)[C@]3(C)CC[C@@]2(NC(=O)CCCN2CCCC2)CC1=O	IIIB	MT-2	-	30% human serum	<0.199 µM
Cc1cn([C@H]2C[C@H](N=[N+]=[N-])[C@@H](COP(=O)(O)OCCS[C@@H]3O[C@H](CO)[C@@H](O)[C@H](O)[C@H]3O)O2)c(=O)[nH]c1=O	LAI	MM + M/M	-	-	0.5 µM
Cc1cn([C@H]2C=C[C@@H](CO)O2)c(=O)[nH]c1=O	IIIB	PBMC	-	-	0.05 µM
COc1ncnc2c1ncn2C(C)CO	LAV-1	MT-2	-	-	>100 µM
Nc1nc2c(ncn2[C@H]2C=C[C@@H](CO)O2)c(=O)o1	IIIB	H9	-	-	>30 µg/mL
COC(=O)C(C)(C)NP(=O)(OC[C@@H]1OC[C@H](n2cc(C)c(=O)[nH]c2=O)O1)Oc1ccccc1	LAI	PBMC	RT-M184V	-	0.62 µM
CC(C)C1=C2[C@H]3CC[C@@H]4[C@@]5(C)CC[C@H](OC(=O)CC(C)(C)C(=O)O)C(C)(C)[C@@H]5CC[C@@]4(C)[C@]3(C)CC[C@@]2(NC(=O)c2ccc(F)cc2)CC1=O	IIIB	MT-2	-	30% human serum	<0.199 µM
COC(=O)[C@H](C)NP(=O)(OC[C@@H]1OC[C@H](n2cc(C)c(=O)[nH]c2=O)O1)Oc1ccc(F)cc1	LAI	PBMC	RT-M184V	-	1.7 µM
Cc1ccc(NC(=O)CN2CCN(Cc3nc(-c4ccc(F)cc4)no3)CC2)cc1	89BZ167	PBMC	-	-	12.3 µM
COc1ccc(C[C@H](C[C@H](O)[C@H](Cc2ccccc2)NC(=O)OC(C)(C)C)C(=O)N[C@H](C(=O)N[C@@H](Cc2ccccc2)C(=O)N2CCOCC2)C(C)C)cc1OC	MN	MT-2	-	-	<0.1 µM
CC(C)=CCC/C(C)=C/COc1ccc2ccc(=O)oc2c1	LAV	PBMC	-	-	5.7 µM
Cc1cn([C@H]2C[C@H](N=[N+]=[N-])[C@@H](CO)O2)c(=O)[nH]c1=O	BaL	PBMC	-	-	0.0143 µM
O=c1ccn([C@H]2C=C[C@@H](CO)O2)c(=O)n1CCCN1CCN(CCNC(=S)Nc2ccc(Br)cn2)CC1	IIIB	CEM + CEM-SS	-	-	>100 µM
O=C(CNn1c(-c2ccccc2)nc2ccccc2c1=O)Nc1ccccc1	-	CEM	-	-	70.9 µM
CC(C)C1=C2[C@H]3CC[C@@H]4[C@@]5(C)CC[C@H](OC(=O)CC(C)(C)C(=O)O)C(C)(C)[C@@H]5CC[C@@]4(C)[C@]3(C)CC[C@@]2(NC(=O)c2ccncc2)CC1=O	IIIB	MT-2	-	30% human serum	<0.199 µM
O=c1ccn([C@H]2C=C[C@@H](CO)O2)c(=O)n1CCOCCN1CCN(CCNC(=S)Nc2ccc(Br)cn2)CC1	IIIB	MT-4	-	-	>100 µM
CCOC(=O)[C@H](C)NP(=O)(OC[C@@H]1OC[C@H](n2cnc3c(Cl)nc(N)nc32)O1)Oc1ccccc1	LAI	PBMC	-	-	0.004 µM
Cc1cccc(C(=O)OCc2nc3ccccc3nc2C)c1O	89BZ167	PBMC	-	-	>100 µM
Nc1nc(Cl)c2ccn([C@H]3C=C[C@@H](CO)C3)c2n1	LAI	CEM + CEM-SS	-	-	>100 µM
Cc1cn([C@H]2C=C[C@@H](CO)O2)c(=O)n(CCCCCCN2CCN(CCNC(=S)Nc3ccc(Br)cn3)CC2)c1=O	IIIB	MT-4	-	-	>100 µM
O=c1cc(CCl)nc2c3ncn([C@H]4C[C@H](O)[C@@H](COP(=O)(O)O)O4)c3ncn12	LAV-1	MT-4	-	-	>200 µM
CCOC(=O)[C@H](C)NP(=O)(OC[C@@H]1OC[C@H](n2cnc3c(OC)nc(N)nc32)O1)Oc1ccccc1	LAI	PBMC	-	-	0.004 µM
CC(C)[C@H](NC(=O)[C@H](Cc1ccccc1)C[C@H](O)[C@H](Cc1ccccc1)NC(=O)OC(C)(C)C)C(=O)NCCN(C)C	MN	MT-2	-	-	<0.3 µM
COC(=O)[C@@H](Cc1ccccc1)NP(=O)(OC[C@@H]1OC[C@H](n2cc(C)c(=O)[nH]c2=O)O1)Oc1ccccc1	LAI	PBMC	RT-M184V	-	13.7 µM
COc1cc(N=Nc2cc(S(=O)(=O)O)cc3cc(S(=O)(=O)O)cc(O)c23)c(C)cc1NC(=O)Nc1cc(C)c(N=Nc2cc(S(=O)(=O)O)cc3cc(S(=O)(=O)O)cc(O)c23)cc1OC	LAV-BR	PBL	-	-	<100 µM
COC(=O)[C@H](C)NP(=O)(OC[C@@H]1OC[C@H](n2cc(C)c(=O)[nH]c2=O)O1)Oc1ccccc1	LAI	PBMC	RT-M184V	-	0.2 µM
CC(CO)n1cnc2c(Cl)ncnc21	LAV-1	MT-4	-	-	>100 µM
Nc1nc(NC2CC2)c2ncn([C@H]3CO[C@@H](CO)O3)c2n1	HXB2 Recombinant	MT-2	-	-	0.053 µM
COc1cc(OC)c2ccc(=O)oc2c1CC(=O)C(C)C	LAV	PBMC	-	-	>100 µM
CC(C)C1=C2[C@H]3CC[C@@H]4[C@@]5(C)CC[C@H](OC(=O)CC(C)(C)C(=O)O)C(C)(C)[C@@H]5CC[C@@]4(C)[C@]3(C)CC[C@@]2(NS(C)(=O)=O)CC1=O	IIIB	MT-2	-	30% human serum	<0.199 µM
COC(=O)[C@H](NP(=O)(OC[C@@H]1OC[C@H](n2cc(C)c(=O)[nH]c2=O)O1)Oc1ccccc1)C(C)C	LAI	PBMC	RT-M184V	-	18 µM
[N-]=[N+]=N[C@H]1C[C@H](CO)O[C@@H]1n1cc(F)c(N)nc1=O	LAV	PBMC	-	-	1 µM
Cc1cnc(C(=O)N[C@@]23CC[C@]4(C)C(CCC5[C@@]6(C)CC[C@H](OC(=O)CC(C)(C)C(=O)O)C(C)(C)C6CC[C@]54C)C2=C(C(C)C)C(=O)C3)o1	IIIB	MT-2	-	30% human serum	<0.199 µM
S=c1[nH]cc2n1CCN(Cc1ccccc1)CC2	LAI	CEM + CEM-SS	-	-	>100 µM
COc1cc(-c2ccc(Nc3ccccc3C(=O)O)c(OC)c2)ccc1Nc1ccccc1C(=O)O	BaL	PBMC	-	-	1.37 µM
Nc1nc2c(ncn2[C@@H]2O[C@H](COS(N)(=O)=O)[C@@H](O)[C@H]2O)c(=O)o1	IIIB	U-937/HIV-1(IIIB) + U-937	-	-	>100 µg/mL
OC[C@@H]1C=C[C@H](n2ccc3c(Cl)ncnc32)C1	LAI	CEM + CEM-SS	-	-	>100 µM
CCCOCCCNC(=O)[C@@H](NC(=O)[C@H](Cc1ccc(OC)c(OC)c1OC)C[C@H](O)[C@H](Cc1ccccc1)NC(=O)OC(C)(C)C)C(C)C	MN	MT-2	-	-	<0.03 µM
Cc1cn([C@H]2CO[C@@H](CO[P@@]3(=O)OCC[C@@H](c4cccc(Cl)c4)O3)O2)c(=O)[nH]c1=O	LAI	PBMC	RT-M184V	-	1.8 µM
CCCCCCCCCCCCCCCCOP(=O)(OCCO[C@@H]1O[C@H](CO)[C@@H](O)[C@H](O)[C@@H]1O)OC[C@H]1O[C@@H](n2cc(C)c(=O)[nH]c2=O)C[C@@H]1N=[N+]=[N-]	LAV-Bru	U-937	-	7 d	>1 µM
CC(C)=CC1Oc2cc(O)ccc2-c2oc3cc4c(c(O)c3c(=O)c21)C=CC(C)(C)O4	LAV	PBMC	-	-	20.6 µM
Cc1cn(CCCO[C@H]2C=C[C@@H](CO)O2)c(=O)[nH]c1=O	LAI	CEM + CEM-SS	-	-	37 µg/mL
CC(C)C1=C2[C@H]3CC[C@@H]4[C@@]5(C)CC[C@H](OC(=O)CC(C)(C)C(=O)O)C(C)(C)[C@@H]5CC[C@@]4(C)[C@]3(C)CC[C@@]2(NC(=O)C2CCN(C)CC2)CC1=O	IIIB	MT-2	-	30% human serum	<0.199 µM
Nc1nc(NC2CC2)c2ncn([C@H]3CO[C@@H](CO)O3)c2n1	LAI	PBMC	-	-	1.8 µM
COc1cccc(C[C@H](C[C@H](O)[C@H](Cc2ccccc2)NC(=O)OC(C)(C)C)C(=O)N[C@H](C(=O)N[C@@H](Cc2ccccc2)C(=O)N2CCOCC2)C(C)C)c1	MN	MT-2	-	-	<0.03 µM
[N-]=[N+]=N[C@H]1C[C@H](n2ccc(=O)[nH]c2=O)O[C@@H]1COP(=O)(O)OP(=O)(O)O[C@H]1O[C@H](CO)[C@H](O)[C@H](O)[C@H]1O	LAV	PBMC	-	-	0.02–0.41 µM
C[C@@H](O)[C@H](NC(=O)[C@H](Cc1ccc(O)cc1)NC(=O)[C@H](CC(N)=O)NC(=O)[C@@H](NC(=O)[C@@H](N)CO)[C@@H](C)O)C(=O)O	LAV	A3.01	-	-	<0.001 µM
O=c1cc(CCl)nc2c3ncn([C@@H]4O[C@H](COP(=O)(O)O)[C@@H](O)[C@H]4O)c3ncn12	LAV-1	MT-4	-	-	>200 µM
COc1cc(OC)cc(C(=O)OCc2nc3ccccc3nc2C)c1	BaL	PBMC	-	-	>100 µM
O=c1ccn2cnc3c(ncn3[C@@H]3O[C@H](CO)[C@@H](O)[C@H]3O)c2n1	LAV-1	MT-4	-	-	>1500 µM
COc1cc(OC)c2ccc(=O)oc2c1CC(O)C(C)(C)O	LAV	PBMC	-	-	>100 µM